Anti-infective test results gathered from many reports (values: NIAID ChemDB through PubChem).

Common to all: whole-cell or culture tests; species: Mycobacterium tuberculosis

ECn: concentration that inhibits the pathogen or its effect by n%. Percent inhibition refers to the dose given; in toxicity tests it is the harm to the cells. Two numbers with a dash give a range or band. MIC bound: limit read from a one-dose screen. An empty or dashed field is not shown. MIC50, MIC90 and the like: level of inhibition, or share of isolates inhibited. Conditions beyond the fields shown may differ between rows.

structure,strain,conditions,endpoint,read by,tested at,changes,value
COc1ccc(NC(=S)c2cc(Cl)ccc2O)cc1,My 331/88,,MIC,,,,1 µM
CO[C@H]1/C=C/O[C@@]2(C)Oc3c(C)c(O)c4c(O)c(c(/C=N/N5CCN(C6CCCC6)CC5)c(O)c4c3C2=O)NC(=O)/C(C)=C\C=C\[C@H](C)[C@H](O)[C@@H](C)[C@@H](O)[C@@H](C)[C@H](OC(C)=O)[C@@H]1C,H37Rv,,MIC,,,,0.04 µg/mL
CCc1ccc(NC(=S)c2cc(Cl)ccc2O)cc1,My 331/88,,MIC,,,,2 µM
Cc1c(-c2ccccc2)c(=O)oc2ccc(-c3cc(-c4ccc(F)cc4)c4oc5ccccc5c4n3)cc12,H37Rv,,inhibition,agar / visual reading,250 µg/mL,,62%
NNC(=O)c1ccc(N)cc1,,,MIC,,,,40 µg/mL
Cc1cc(O)c2c(c1)C(=O)C(c1c(C)cc3c(c1O)C(=O)C=CC3=O)=CC2=O,H37Rv,,MIC,,,,0.1 µg/mL
CC(=O)Oc1ccc(/C=N/NC(=O)c2ccccc2)cc1,,,MIC,,,,10 µg/mL
COc1cc(Cc2cnc(/N=C3\C(=O)N(CN4CCN(c5cccc(Cl)c5)CC4)c4ccc(F)cc43)nc2N)cc(OC)c1OC,H37Rv,,EC50,,,,>6.25 µg/mL
CC1=NN(c2ccccc2)C(=O)C1N=Nc1ccc(S(=O)(=O)Nc2nnc(C)s2)cc1,RMP-R,,MIC,,,,6.3 µg/mL
CN[C@@H]1[C@H](O[C@H]2[C@H](O[C@H]3[C@H](O)[C@@H](O)[C@H](N=C(N)N)[C@@H](O)[C@@H]3N=C(N)N)O[C@@H](C)[C@]2(O)C=O)O[C@@H](CO)[C@H](O)[C@H]1O,H37Rv (streptomycin-susceptible),,MIC,,,,<4 µg/mL
O=C(CN1C(=O)c2ccccc2C1=O)C(O)CN1C(=O)c2ccccc2C1=O,H37Rv,,MIC bound,resazurin,,,>6.25 µg/mL
COc1cc(Cc2cnc(/N=C3\C(=O)N(CN4CCN(c5cc6c(cc5F)c(=O)c(C(=O)O)cn6C5CC5)CC4)c4ccc(F)cc43)nc2N)cc(OC)c1OC,H37Rv,,EC50,,,,<6.25 µg/mL
Oc1cc(Cl)ccc1C(=S)NCc1ccc(Cl)c(Cl)c1,My 331/88,,MIC,,,,2 µg/mL
C[C@@H]1CN(c2c(F)c(N)c3c(=O)c(C(=O)O)cn(C4CC4)c3c2F)C[C@H](C)N1,25 strains,,MIC90,,,,0.2 µg/mL
O=C1CCC2CCC(CC2)O1,H37Rv,,MIC bound,BACTEC,,,>12.5 µg/mL
COC(=O)/C(=C\c1ccc(C)cc1)Oc1cccc(C(=O)OC)c1O,,,EC50,resazurin,,,270 µM
Cn1cc(C(=O)O)c(=O)c2cc([N+](=O)[O-])c3cccnc3c21,BCG,,MIC90,,,,1.4 µM
CCn1cc(C(=O)O)c(=O)c2cc(F)c(N3CCN(CN4C(=O)/C(=N\c5ncc(Cc6cc(OC)c(OC)c(OC)c6)c(N)n5)c5cc(F)ccc54)CC3)cc21,H37Rv,,EC50,,,,<6.25 µg/mL
O=C1c2cc(Br)ccc2OP(=O)(c2ccccc2)N1c1ccc(C(F)(F)F)cc1,Praha 131,14 d,MIC,,,,1 µM
Cc1ccc(NC(=O)/C(=N\NC(=O)CC#N)C2C(=O)N(c3ccccc3)N=C2N)cc1C,H37Rv,,inhibition,resazurin,6.25 µg/mL,,-82%
CCn1cc(C(=O)O)c(=O)c2ccc(C)nc21,H37Rv,,MIC90,,,gyrA mutation A90V,>50 µM
CCn1cc(C(=O)O)c(=O)c2cc(F)c(N3CCN(CN4C(=O)/C(=N\c5ncc(Cc6cc(OC)c(OC)c(OC)c6)c(N)n5)c5cc(F)ccc54)C(C)C3)c(F)c21,H37Rv,,EC50,,,,<6.25 µg/mL
O=C(NNS(=O)(=O)c1ccc([N+](=O)[O-])cc1)c1ccccc1,,,MIC,,,,100 µg/mL
O=C1c2ccccc2C(=O)c2cc(C[P+](c3ccccc3)(c3ccccc3)c3ccccc3)ccc21,FJ05195,,MIC,resazurin,,Extensively drug-resistant,1 µg/mL
Cc1ccc(-c2cc(-c3ccc4oc(=O)c(-c5ccccc5)c(C)c4c3)nc3c2CCc2ccccc2-3)cc1,H37Rv,,inhibition,agar / visual reading,250 µg/mL,,53%
O=C(Nc1ccc(C(F)(F)F)cc1)c1cc(Br)ccc1OP(=O)(OCc1ccccc1)OCc1ccccc1,My 331/88,7 d,MIC,,,,8 µM
O=C(N/N=C/c1ccco1)c1ccc(O)cc1,,,MIC,,,,1 µg/mL
COC(=O)/C(=C\c1ccccc1OC(C)=O)Oc1cccc(C(=O)OC)c1O,,,EC50,resazurin,,,89 µM
O=[n+]1c2ccccc2n([O-])c2ccccc21,H37Rv,,MIC bound,BACTEC,,,≤12.5 µg/mL
COc1ccc(-c2cc(-c3ccc4oc(=O)c(-c5ccccc5)c(C)c4c3)nc3c2oc2ccccc23)cc1,H37Rv,,inhibition,agar / visual reading,250 µg/mL,,81%
COc1ccc(O)c(C(=S)NCc2cccc(Cl)c2)c1,My 331/88,,MIC,,,,0.5 µg/mL
CCC1=C(C)C(=O)OC1n1cnc2c(N)ncnc21,H37Rv,,MIC bound,BACTEC,,,>12.5 µg/mL
O=C(Nc1ccc(Cl)c(Cl)c1)c1cc(Cl)ccc1OP(=O)(OCc1ccccc1)OCc1ccccc1,My 331/88,14 d,MIC,,,,32 µM
CNC(=O)N(C)C(=O)c1ccncc1C(=O)N(C(=O)NC1CCCCC1)C1CCCCC1,H37Rv,,inhibition,resazurin,6.25 µg/mL,,-1%
COC(=O)/C(=C\c1cccc(C(F)(F)F)c1)Oc1cccc(C(=O)OC)c1O,,,EC50,resazurin,,,180 µM
O=C(N/N=C/c1ccco1)c1ccccc1,,,MIC,,,,0.1–10 µg/mL
Cc1cc(N=Nc2ccc(C(=O)Nc3ccc4cc(S(=O)(=O)O)ccc4c3)cc2)c(N)cc1N,H37Rv,,MIC bound,BACTEC,,,>12.5 µg/mL
C/C(=N\NC(=O)c1ccccc1)C(=O)O,,,MIC,,,,1 µg/mL
COC(=O)/C(=C\c1ccccc1Br)Oc1cccc(C(=O)OC)c1O,,,EC50,resazurin,,,95 µM
C/C(=N\Nc1ccccn1)c1ccccn1,H37Rv,,MIC,BACTEC,,,≥12.5 µg/mL
O=C1c2cc(Cl)ccc2OP(=O)(c2ccccc2)N1c1ccc(C(F)(F)F)cc1,7357/1998,14 d,MIC,,,,1 µM
COC(=O)C1[C@@H](OC(=O)CC(CCCCCCCCCCC(C)C)OC(=O)CC(C)CC(=O)OC2OC(C)C(OC)C(OC)C2OC)CN(C)C([C@@H](OC2O[C@H](CN)[C@@H](O)[C@H]2O)C2OC(n3ccc(=O)[nH]c3=O)[C@H](O)[C@@H]2O)C(=O)N1C,H37Rv,,MIC,,,,6.25 µg/mL
CC(=O)Nc1ccc(/C=N/NC(N)=S)cc1F,H37Rv,,MBC,,,,6.25 µg/mL
CC(=O)NNS(=O)(=O)c1ccc(C)cc1C,,,MIC,,,,>200 µg/mL
CC(=O)Nc1ccc(/C=N/NC(N)=S)cc1,Isolate E (drug-resistant),,MBC,,,,30 µg/mL
COc1cc(Cc2cnc(/N=C3\C(=O)N(CN4CCN(Cc5ccccc5)CC4)c4ccc(F)cc43)nc2N)cc(OC)c1OC,H37Rv,,inhibition,,6.25 µg/mL,,37%
Cc1ccc(-c2nnc(CON=C(c3ccccc3)c3ccccc3)o2)cc1,,,inhibition,,12.5 µg/mL,,7–56%
CC(C)(C)OC(=O)NC(Cc1cnc[nH]1)C(=O)N1CCCC1C(N)=O,H37Rv,,MIC bound,resazurin,,,>6.25 µg/mL
Cc1c(-c2ccccc2)c(=O)oc2ccc(-c3cc(-c4ccc(Cl)cc4)c4c(n3)-c3ccccc3C4)cc12,H37Rv,,inhibition,agar / visual reading,250 µg/mL,,12%
Cn1cc(NC(=O)Nc2cc(C(=O)Nc3ccc4cc(S(=O)(=O)O)cc(S(=O)(=O)O)c4c3)n(C)c2)cc1C(=O)Nc1ccc2cc(S(=O)(=O)O)cc(S(=O)(=O)O)c2c1,H37Rv,,inhibition,BACTEC,12.5 µg/mL,,17%
Cc1ccc(-c2cc(-c3ccc4oc(=O)c(-c5ccccc5)c(C)c4c3)nc3c2oc2ccccc23)cc1,H37Rv,,MIC,agar / visual reading,,,125 µg/mL
O=C1C(=O)c2ccccc2C(O)=C1C(C1=C(O)c2ccccc2C(=O)C1=O)c1ccccc1,H37Rv,,inhibition,BACTEC,12.8 µg/mL,,18%
Oc1ccccc1C(=S)NCc1cccc(C(F)(F)F)c1,My 331/88,,MIC,,,,0.5 µg/mL
CC(=O)O[C@H]1CC[C@]2(C)C3=C([C@@H](OO)C[C@H]2C1(C)C)[C@]1(C)CC[C@H](C(C)CCCC(C)C)[C@@]1(C)CC3,H37Rv,,MIC,BACTEC,,,128 µg/mL
Cc1cc(-c2cc3c(cc2F)c(=O)c(C(=O)O)cn3C2CC2)cc(C)n1,483-8,,MIC,,,,0.5 µg/mL
CCCCc1ccc(NC(=S)c2cc(Cl)ccc2O)cc1,My 331/88,,MIC,,,,8 µM
COc1ccccc1NC(=O)CC(=O)N1N=C(C)C(N=Nc2ccc(I)cc2)C1=O,H37Rv,,inhibition,BACTEC,12.8 µg/mL,,11%
Cc1c(-c2ccccc2)c(=O)oc2ccc(-c3cc(-c4ccc(Cl)cc4)c4c(n3)-c3ccccc3CC4)cc12,H37Rv,,inhibition,agar / visual reading,250 µg/mL,,44%
CC(C)=C/C(C)=N\NC(N)=O,H37Rv,,inhibition,resazurin,6.25 µg/mL,,-18%
COC(=O)/C(=C\c1ccc(Cl)cc1)Oc1cccc(C(=O)OC)c1O,,,EC50,resazurin,,,203 µM
CC(=O)Oc1ccc(C2COc3cc(OC(C)=O)c(OC(C)=O)cc3C2)cc1,H37Rv,,MIC,BACTEC,,,≥12.5 µg/mL
C=CCNc1nnc(CON=C(c2ccccc2)c2ccccc2)o1,,,inhibition,,12.5 µg/mL,,7–56%
COC(=O)/C(=C\c1cccc(C)c1)Oc1cccc(C(=O)OC)c1O,,,EC50,resazurin,,,263 µM
CC(=O)Nc1ccc(C(=O)NN)cc1,,,MIC,,,,100 µg/mL
O=C(Nc1ccc(C(F)(F)F)cc1)c1cc(Cl)ccc1OP(=O)(c1ccccc1)c1ccccc1,234/2005,14 d,MIC,,,,1 µM
Cc1ccc(Nc2cc(N)nc(N)n2)cc1,H37Rv,,MIC bound,BACTEC,,,>12.5 µg/mL
c1ccc(C(=NOCCc2nnc(N3CCCCC3)o2)c2ccccc2)cc1,,,inhibition,,12.5 µg/mL,,7–56%
CO[C@H]1/C=C/O[C@@]2(C)Oc3c(C)c(O)c4c(=O)c(c5oc6cc(N7CCN(CC(C)C)CC7)cc(=O)c6nc5c4c3=C2O)NC(=O)/C(C)=C\C=C\[C@H](C)[C@H](O)[C@@H](C)[C@@H](O)[C@@H](C)[C@H](OC(C)=O)[C@@H]1C,H37Rv,,MBC,,,,0.016 µg/mL
COc1cc2c(cc1OC)-c1c(C)c3ccc(OC)c(NCCO)c3c[n+]1CC2.[Cl-],H37Rv,,inhibition,BACTEC,12.5 µg/mL,,22%
CCN(CC)CN1C(=O)/C(=N\c2ncc(Cc3cc(OC)c(OC)c(OC)c3)c(N)n2)c2cc(F)ccc21,H37Rv,,EC50,,,,>6.25 µg/mL
C/C(=N\OCc1nnc(-c2ccc(C)cc2)o1)c1ccccc1,,,inhibition,,12.5 µg/mL,,7–56%
COc1ccc(C(=S)NCc2ccccc2)c(O)c1,My 331/88,,MIC,,,,4 µg/mL
Cc1ccc(-c2nnc(CCON=C(c3ccccc3)c3ccccc3)o2)cc1,,,inhibition,,12.5 µg/mL,,7–56%
O=C(Nc1ccc(C(F)(F)F)cc1)c1cc(Cl)ccc1OP(=O)(Oc1ccccc1)Oc1ccccc1,My 331/88,7 d,MIC,,,,2 µM
CC(C)[C@@H](C)[C@@H](O)[C@@H](O)[C@@H](C)[C@H]1CC[C@H]2[C@@H]3COC(=O)[C@H]4C[C@H](O)[C@H](O)C[C@]4(C)[C@H]3CC[C@]12C,H37Rv,,inhibition,BACTEC,12.5 µg/mL,,9%
O=C(NNC(=O)c1ccccc1)C(=O)NNC(=O)c1ccccc1,,,MIC,,,,>200 µg/mL
COC(=O)C1=C(C(=O)OC)C2(C)OC1C(=O)C21CC1,H37Rv,,inhibition,BACTEC,12.5 µg/mL,,65%
Oc1ccc(Cl)cc1C(=S)Nc1ccc(Cl)c(Cl)c1,My 331/88,,MIC,,,,1 µM